The results in this text go back to article PMC3504009 (PLoS ONE, 2012).

For this test, the target named is YscUCC-His6, wild type, from GST-YscUC-His6 (Y. pseudotuberculosis, UniProt P69987).

B1: GST-YscUCN, the GST-carrying N-terminal fragment of GST-YscUC-His6 (domain or fragment)
chain: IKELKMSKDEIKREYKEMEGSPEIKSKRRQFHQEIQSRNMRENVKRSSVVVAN
With B1, the binding result was “binds”.
